Measurements taken from paper PMC12724200 (mSphere, 2025).

Columns and labels:
[1] = molecular target: recombinant mutant PTA (M365L) from OCT313-resistant BCG (Mycobacterium bovis, UniProt A0A679LAX5, M365L); details: for IC50: mutant type PTA
OCT313-resistant BCG = experiment: MIC by broth dilution method; assay type: cell-based, Mycobacterium bovis BCG; details: resistant vs parent BCG
M. bovis BCG = experiment: Frequency of spontaneously generated drug-resistant colonies; assay type: cell-based, Mycobacterium bovis BCG; details: parent BCG strain

Compound | IC50 [1] | IC50 against mutant versus wild-type PTA ([1]; mutant vs wild-type PTA) | MIC against OCT313-resistant bacteria versus parent strain (OCT313-resistant BCG) | Frequency of spontaneously generated drug-resistant colonies (M. bovis BCG)
CCN1C(=O)C=CC1=O [NEM, N-ethylmaleimide] | 35.1 µM | – | – | –
CC(=O)N[C@@H]1[C@@H](O)[C@H](O)[C@@H](CO)O[C@H]1SC(=S)N(C)C [OCT313, 2-acetamido-2-deoxy-β-D-glucopyranosyl N,N-dimethyldithiocarbamate] | 236 µM | 84 fold | – | –
Dimethyldithiocarbamate | – | – | four times higher | 2.3 × 10^−5
